A mixed list of measured activities; the numbers were collected in NIAID ChemDB.

Common to all: tests in culture; organism: HIV-1

a–b is a range or a potency band.

| structure | cell line | strain or isolate | mutations | read-out | read by | value |
|---|---|---|---|---|---|---|
| CCOC(=O)c1ccc(CN2CCC(Nc3nc(Oc4c(C)cc(/C=C/C#N)cc4C)c4sccc4n3)CC2)cc1 | MT-4 | IIIB | NNRTI-resistant (RT E138K) | EC50 | MTT | 0.0374 µM |
| N#Cc1ccc(Nc2nc(Oc3ccc(-c4ccc(C#N)cc4)cc3Cl)c3sccc3n2)cc1 | MT-4 | IIIB | - | EC50 | MTT | 0.0397 µM |
| CCN1c2ncc(CCOc3ccc(-c4ccc(Cl)c(CC(=O)O)c4)cc3C)cc2C(=O)N(C)c2cccnc21 | C8166 | - | RT-K103N Y181C | EC50 | p24 | 0.01–0.05 µM |
| O=C1Nc2ccc(Cl)cc2[C@@](C#CC2CC2)(C(F)(F)F)O1 | MT-4 | IIIB | K103N | EC50 | MTT | 0.1016 µM |
| Cc1ccc(C)c(CS(=O)(=O)c2cccc[n+]2[O-])c1 | CEM | IIIB | RT-Y181C | EC50 | syncytia | 20 µg/mL |
| O=C(N[C@@H](Cc1ccccc1)[C@H](O)CN(CC1CCCC1)S(=O)(=O)c1ccccc1)O[C@H]1CCOC1 | CEM | IIIB | - | EC90 | p24 | ≤0.1 µM |
| CCN1c2ncc(CCOc3ccc(/C=C(\C)C(=O)O)c4ccccc34)cc2C(=O)N(C)c2ccc(C)nc21 | C8166 | WT | - | EC50 | p24 | <0.1 µM |
| COC(=O)N[C@@H](Cc1ccccc1)[C@H](O)CN(CC(C)C)S(=O)(=O)c1ccc(F)cc1 | CEM | IIIB | - | EC50 | p24 | <10 µM |
| CCN1CCC[C@@H]1CNc1cc(S(=O)(=O)N(CC(C)C)C[C@@H](O)[C@H](Cc2ccccc2)NC(=O)O[C@H]2CO[C@H]3OCC[C@H]32)ccc1N | MT-4 | IIIB WT | - | EC50 | GFP | 0.0661 µM |
| CCN1c2ncc(CCOc3ccc(CC(=O)NN)c4ccccc34)cc2C(=O)N(C)c2ccc(Cl)nc21 | C8166 | - | RT-K103N Y181C | EC50 | p24 | <0.1 µM |
| N#Cc1ccc(Nc2nc(Oc3ccc(-c4ccc(C#N)cc4)c(F)c3F)c3sccc3n2)cc1 | MT-4 | IIIB | F227L V106A | EC50 | MTT | 0.6028 µM |
| CC(C)CN(C[C@@H](O)[C@H](Cc1ccccc1)NC(=O)O[C@H]1CO[C@H]2OCC[C@H]21)S(=O)(=O)c1ccc2nc(NC3CCN(C4CCCC4)CC3)sc2c1 | PBMC | LAI | - | EC50 | p24 | 2.2 nM |
| Cc1cccc(CS(=O)(=O)c2cccc[n+]2[O-])c1 | CEM | IIIB | RT-K103N | EC50 | syncytia | 16 µg/mL |
| CC(C)CN(C[C@@H](O)[C@H](Cc1ccccc1)NC(=O)O[C@H]1CO[C@H]2OCC[C@H]21)S(=O)(=O)c1ccc(N)c(NCCc2cccnc2)c1 | MT-4 | IIIB WT | - | EC50 | GFP | 0.0759 µM |
| CC(C)CN(C[C@@H](O)[C@H](Cc1ccccc1)NC(=O)OC[C@@H]1COC(=O)N1)S(=O)(=O)c1ccc(F)cc1 | CEM | IIIB | - | EC50 | p24 | <1 µM |
| Cc1ccc(C)c(CSc2c(Cl)ccc[n+]2[O-])c1 | CEM | IIIB | RT-E103K | EC50 | syncytia | 1.2 µg/mL |
| COc1cc(Oc2nc(Nc3ccc(C#N)cc3)nc3ccsc23)ccc1-c1ccc(C#N)cc1 | MT-4 | IIIB | - | EC50 | MTT | 0.0253 µM |
| Cc1ccc(C(C)S(=O)(=O)c2c(C)ccc[n+]2[O-])c(C)c1 | CEM | IIIB | RT-L100I | EC50 | syncytia | 60 µg/mL |
| O=C1Nc2ccc(F)c(F)c2[C@@](C#CC2CC2)(C(F)(F)F)N1 | - | - | RT-K103N P225H | EC90 | - | ~0.035 µM |
| CCN1c2ncc(CCOc3ccc(-c4cccnc4)cc3C)cc2C(=O)N(C)c2cccnc21 | C8166 | - | RT-K103N Y181C | EC50 | p24 | <0.01 µM |
| NC(=O)C[C@H](NC(=O)c1ccc2ccccc2n1)C(=O)N[C@@H](Cc1ccccc1)[C@H](O)CN(Cc1ccccc1)S(=O)(=O)c1cccc(S(N)(=O)=O)c1 | CEM | IIIB | - | EC50 | p24 | <1 µM |
| CCN1c2ncc(CCOc3ccc(CCC(=O)O)c4ccccc34)cc2C(=O)N(C)c2ccc(Cl)nc21 | C8166 | - | RT-K103N Y181C | EC50 | p24 | <0.1 µM |
| Cc1cc(/C=C/C#N)cc(C)c1Oc1nc(NC2CCN(Cc3cccc(C(N)=O)c3)CC2)nc2ccsc12 | MT-4 | IIIB | NNRTI-resistant (RT Y181C) | EC50 | MTT | 0.00628 µM |
| CC(=O)Nc1ccc(S(=O)(=O)N(CC(C)C)C[C@@H](O)[C@H](Cc2ccccc2)NC(=O)[C@@H](NC(=O)OCc2ccncc2)C(C)C)cc1 | CEM | IIIB | - | EC50 | p24 | <1 µM |
| CC(=O)N1CCN(CCNc2cc(S(=O)(=O)N(CC(C)C)C[C@@H](O)[C@H](Cc3ccccc3)NC(=O)O[C@H]3CO[C@H]4OCC[C@H]43)ccc2N)CC1 | MT-4 | IIIB WT | - | EC50 | GFP | 1 µM |
| Cc1ccc(C)c(C(C)S(=O)(=O)c2c(C)ccc[n+]2[O-])c1 | CEM | IIIB | RT-Y181C | EC50 | syncytia | ≥20 µg/mL |
| Cc1cc(-c2ccc(C#N)cc2)cc(Cl)c1Oc1nc(Nc2ccc(C#N)cc2)nc2ccsc12 | MT-4 | IIIB | L100I | EC50 | MTT | 0.0284 µM |
| CC(=O)N1CCc2cc(S(=O)(=O)N(CC3CCCC3)C[C@@H](O)[C@H](Cc3ccccc3)NC(=O)O[C@H]3CCOC3)ccc21 | CEM | IIIB | - | EC50 | p24 | <1 µM |
| CCOC(=O)c1ccc(CN2CCC(Nc3nc(Oc4c(C)cc(C#N)cc4C)c4ccsc4n3)CC2)cc1 | MT-4 | IIIB | NNRTI-resistant (RT Y188L) | EC50 | MTT | 1.85 µM |
| Cc1ccc(C)c(CS(=O)(=O)c2ccccn2)c1 | CEM | IIIB | RT-L100I | EC50 | syncytia | 10 µg/mL |
| CCN1c2ncc(CCOc3ccc(C(=O)N=c4ccn(O)cc4)cc3C)cc2C(=O)N(C)c2cccnc21 | C8166 | IIIB | - | EC50 | p24 | <0.01 µM |
| Cc1cc(/C=C/C#N)cc(C)c1Oc1nc(NC2CCN(Cc3ccccn3)CC2)nc2ccsc12 | MT-4 | IIIB | NNRTI-resistant (RT Y188L) | EC50 | MTT | 0.0417 µM |
| Cc1cc(-c2ccc(CC(=O)O)cc2)ccc1OCCc1cnc2c(c1)C(=O)N(C)c1cccnc1N2 | C8166 | - | RT-K103N Y181C | EC50 | p24 | >0.05 µM |
| O=C1Nc2ccc(Cl)cc2[C@@](C#CC2CC2)(C(F)(F)F)N1 | - | - | RT-Y181C | EC90 | - | <0.012 µM |
| Cc1cc(/C=C/C#N)cc(C)c1Oc1nc(NC2CCN(Cc3ccc(F)cc3)CC2)nc2ccsc12 | MT-4 | IIIB | NNRTI-resistant (RT F227L V106A) | EC50 | MTT | 0.103 µM |
| O=C(N[C@@H](Cc1ccccc1)[C@H](O)CN(CC1CCCC1)S(=O)(=O)c1ccc(F)cc1)OCc1cccnc1 | CEM | IIIB | - | EC50 | p24 | <10 µM |
| CCNC(=O)N1CCc2c(OCCc3cnc4c(c3)C(=O)N(C)c3cccnc3N4CC)ccc(C(=O)O)c2C1 | C8166 | WT | - | EC50 | p24 | 0.1–1 µM |
| Cc1cc(C#N)cc(C)c1Oc1nc(NC2CCC(NCc3cccc(C(F)(F)F)c3)CC2)nc2ccsc12 | MT-4 | IIIB | NNRTI-resistant (RT Y188L) | EC50 | MTT | >707 µM |
| CC(C)CN(C[C@@H](O)[C@H](Cc1ccccc1)NC(=O)O[C@H]1CO[C@H]2OCC[C@H]21)S(=O)(=O)c1ccc(N)c(NCCc2ccc3c(c2)OCO3)c1 | MT-4 | IIIB WT | - | EC50 | GFP | 0.00372 µM |
| Cc1ccc(C)c(C(Cl)S(=O)(=O)c2cc(C)cc[n+]2[O-])c1 | C8166 | IIIB | - | EC50 | syncytia | 0.4 µg/mL |
| Cc1ccc(-c2ccc3c(c2)C=C(C(=O)Nc2ccc(C[N+](C)(C)C4CCOCC4)cc2)CCC3)cc1 | PBMC | TB2 CLADE C | - | EC50 | p24 | <1 µM |

For reference, 3 entries again:

structure | cell line | strain or isolate | mutations | read-out | read by | value
CCN1c2ncc(CCOc3ccc(CC(=O)NN)c4ccccc34)cc2C(=O)N(C)c2ccc(Cl)nc21 | C8166 | - | RT-K103N Y181C | EC50 | p24 | <0.1 µM
Cc1ccc(C)c(C(C)S(=O)(=O)c2c(C)ccc[n+]2[O-])c1 | CEM | IIIB | RT-Y181C | EC50 | syncytia | ≥20 µg/mL
COC(=O)N[C@@H](Cc1ccccc1)[C@H](O)CN(CC(C)C)S(=O)(=O)c1ccc(F)cc1 | CEM | IIIB | - | EC50 | p24 | <10 µM

Blank or dashed fields: not listed here. Rows are shuffled and stem from different studies. ECn is the concentration giving n% inhibition of infection, replication or growth.